Data published in ChEMBL document CHEMBL1157539, “Thousands of chemical starting points for antimalarial lead identification” (Nature, 2010).
The list shows a part of the results, in another mix than the full data.

system: Plasmodium falciparum; assay: GSK_TCMDC: Inhibition of Plasmodium falciparum 3D7 LDH activity, using an LDH reporter assay. Test compounds present at 2uM; type: functional, organism-based

Point of comparison: `CC(C)(C)c1cc2cc(N(C(=O)c3ccc(C(F)(F)F)cc3)C3CCN(Cc4ccccc4)CC3)ccc2[nH]1`, inhibition 4%. Against it:
- Cn1c(=O)n(C2CCN(CCCC(c3ccc(F)cc3)c3ccc(F)cc3)CC2)c2ccccc21 — lower, 0%
